Pooled drug test results. Numbers come from NIAID ChemDB, via PubChem.

Shared fields: tests on isolated targets; agent: HIV-1; target: Reverse transcriptase; read-out: fold resistance

Conditions beyond the fields shown may differ between rows. a–b is a range or a potency band. Fold resistance has wild type as its base. An empty or dashed field is not shown.

smiles,strain,mutations,method,result
CCN1c2ncc(CCOc3ccc(C(=O)O)c4c3CCC4)cc2C(=O)N(C)c2ccc(Cl)nc21,-,RT-K103N Y181C,nucleotide incorporation / radiometric,1
COc1ccc2c(C3CC3)ccc(-n3c(Br)nnc3SCC(=O)Nc3ccc(C(=O)O)cc3Cl)c2c1,-,RT-Y188L,nucleotide incorporation / radiometric,>1
CCN1c2ncc(CCOc3ccc(C(=O)O)c4c3CCCC4)cc2C(=O)N(C)c2ccc(F)nc21,-,RT-K103N Y181C,nucleotide incorporation / radiometric,1–10
CCN1c2ncc(CCOc3ccc(-c4cc[n+]([O-])cc4)cc3C)cc2C(=O)N(C)c2cccnc21,IIIB,RT-K103N Y181C,nucleotide incorporation / radiometric,1
Cc1cc(S(N)(=O)=O)ccc1NC(=O)COc1ccccc1C(=O)c1cc(Cl)cc(C#N)c1,NNRTI-resistant,RT-Y188L,nucleotide incorporation / radiometric,8.3
CC(C)=CCN1Cc2cccc3[nH]c(=S)n(c23)C[C@@H]1C,-,RT-Y188L,nucleotide incorporation,>611
Cc1ccc(-n2c(SCC(=O)Nc3ccc(S(=O)(=O)NCCC(=O)O)cc3Cl)nnc2C(F)F)c2c1CCCC2,-,RT-Y181C,nucleotide incorporation / radiometric,>2
CCN1c2ncc(CCOc3ccc(-c4cccnc4C)cc3C)cc2C(=O)N(C)c2cccnc21,IIIB,RT-K103N Y181C,nucleotide incorporation / radiometric,1
NS(=O)(=O)c1ccc(NC(=O)CSc2nnc(Br)n2-c2ccc(C3CC3)c3ccccc23)c(Cl)c1,-,RT-Y188L,nucleotide incorporation / radiometric,>1
O=C(O)CCNC(=O)c1ccc(NC(=O)CSc2nnc(Br)n2-c2ccc(C3CC3)c3ccccc23)c(Cl)c1,-,RT-Y188L,nucleotide incorporation / radiometric,>2
NCCCCNc1nc(Cc2ccccc2)cc(=O)[nH]1,-,RT-V179D,-,>14.3
CCN1c2ncc(CCOc3ccc(CC(=O)NN)c4ccccc34)cc2C(=O)N(C)c2ccc(Cl)nc21,-,RT-Y188L,nucleotide incorporation / radiometric,1–10
Cc1c(Cc2ccccc2)nc(NCCCCN)[nH]c1=O,-,RT-Y188L,-,>10.3
Cc1cc(S(N)(=O)=O)ccc1NC(=O)CSc1nnc(Br)n1-c1ccc(C2CC2)c2ccccc12,-,RT-Y188L,nucleotide incorporation / radiometric,>2
CCN1c2ncc(CCOc3ccc(NS(C)(=O)=O)c4ccccc34)cc2C(=O)N(C)c2ccc(F)nc21,-,RT-K103N Y181C,nucleotide incorporation / radiometric,1
CCCCCCNC(=O)c1ccc(NC(=O)CSc2nnc(Br)n2-c2ccc(CC)c3ccccc23)c(Cl)c1,-,RT-Y188L,nucleotide incorporation / radiometric,>2
CCN1c2ncc(CCOc3ccc(-c4c[n+]([O-])ccc4C)cc3C)cc2C(=O)N(C)c2cccnc21,IIIB,RT-K103N Y181C,nucleotide incorporation / radiometric,1
CCN1c2ncc(CCOc3cccc4c3ccc[n+]4[O-])cc2C(=O)N(C)c2ccc(Cl)nc21,-,RT-K103N Y181C,nucleotide incorporation / radiometric,5.1
COC(=O)NCCCCNc1nc(Cc2ccccc2)c(C)c(=O)[nH]1,-,RT-Y181I,-,>43.5
Cc1cc(S(N)(=O)=O)ccc1NC(=O)CSc1nnc(Br)n1-c1c(Cl)cc(C2CCC2)c2ccccc12,-,RT-Y188L,nucleotide incorporation / radiometric,>1
Cc1cc(C(=O)O)ccc1NC(=O)CSc1nnc(C(F)F)n1-c1ccc(C)c2c1CCCC2,-,RT-Y181C,nucleotide incorporation / radiometric,>2
CCN1c2ncc(CCOc3ccc(-c4cnc(C)c(C)c4)cc3C)cc2C(=O)N(C)c2cccnc21,IIIB,RT-K103N Y181C,nucleotide incorporation / radiometric,1
O=C(O)CNC(=O)c1ccc(NC(=O)CSc2nnc(Br)n2-c2ccc(C3CC3)c3ccccc23)c(Cl)c1,-,RT-Y188L,nucleotide incorporation / radiometric,>1
CCc1cc(NCc2nc3c(C)ccc(C)c3o2)c(=O)[nH]c1C,-,RT-Y181C,nucleotide incorporation,735
N#Cc1cccc2c(-n3c(SCC(=O)Nc4ccc(S(N)(=O)=O)cc4Cl)nnc3C(F)F)cccc12,-,RT-Y188L,nucleotide incorporation / radiometric,>1
NC(=O)c1[nH]c2ccc(Cl)cc2c1S(=O)(=O)c1ccccc1,-,RT-K103N,nucleotide incorporation / radiometric,5
Cc1ccc(-n2c(C)nnc2SCC(=O)Nc2ccc(S(N)(=O)=O)cc2Cl)c2c1CCCC2,-,RT-Y188L,nucleotide incorporation / radiometric,>2
O=C(CSc1nnc(Br)n1-c1ccc(C2CCC2)c2ccccc12)Nc1ccc(C(=O)O)cc1Cl,-,RT-Y188L,nucleotide incorporation / radiometric,>2
O=C(CSc1nnc(Br)n1-c1ccc(C2CC2)c2ccccc12)Nc1ccc(C(=O)O)cc1Cl,-,RT-Y188L,nucleotide incorporation / radiometric,>1
CCc1ccc(-n2c(Br)nnc2SCC(=O)Nc2ccc(C(=O)O)cc2C)c2ccccc12,-,RT-Y188L,nucleotide incorporation / radiometric,>2
NS(=O)(=O)c1ccc(NC(=O)CSc2nnc(Br)n2-c2ccc(C3CC3)cc2Cl)c(Cl)c1,-,RT-Y188L,nucleotide incorporation / radiometric,>2
Cc1cc(C)cc(S(=O)(=O)c2c(C(N)=O)[nH]c3ccc(Cl)cc23)c1,-,RT-K103N,nucleotide incorporation / radiometric,1
CCN1c2ncc(CCOc3ccc(-c4ccc(C(=O)O)o4)cc3C)cc2C(=O)N(C)c2cccnc21,IIIB,RT-K103N Y181C,nucleotide incorporation / radiometric,>2
Cc1ccc(-n2c(SCC(=O)Nc3ccc(C(=O)O)cc3Cl)nnc2C(F)F)c2c1CCCC2,-,RT-Y188L,nucleotide incorporation / radiometric,>2

3 of the rows above, restated:

smiles	strain	mutations	method	result
NCCCCNc1nc(Cc2ccccc2)cc(=O)[nH]1	-	RT-V179D	-	>14.3
Cc1cc(C)cc(S(=O)(=O)c2c(C(N)=O)[nH]c3ccc(Cl)cc23)c1	-	RT-K103N	nucleotide incorporation / radiometric	1
Cc1ccc(-n2c(C)nnc2SCC(=O)Nc2ccc(S(N)(=O)=O)cc2Cl)c2c1CCCC2	-	RT-Y188L	nucleotide incorporation / radiometric	>2